From US6987127B2, “Regulation of NAD(P)H oxidase growth and transcription in melanoma cells” (Charlotte-Mecklenburg Hospital Authority, priority 2001, dated 2006) come the findings set out here.

Test [1] concerns membrane NAD(P)H oxidase of M1619 melanoma cells. Kind of test: SOD-inhibitable lucigenin chemiluminescence (O2- generation) by 100,000 g plasma membrane fraction. The test is classed as biochemical, human. The settings on record: 1 μmol/L, 15 μg membrane protein, 100 μmol/L NADPH, 5 minutes.
For test [2], the system named is M1619 malignant melanoma cells. The test can be described thus: Proliferation of cultured cells with oxidase inhibitors (MTT assay). The test is classed as cell-based, human. The settings on record: after 48 hours, highest dose (50 μmol/L), 10% FBS; P<0.001. In general terms: Tetrazolium dyes change colour on reduction, which living cells bring about.

Consider `O=[As]c1ccccc1` (centres unmarked), for which the “Lucigenin chemiluminescence of membranes + NADPH” value in test [1] is listed as “significantly inhibited”. In test [2], the “Inhibition of M1619 malignant melanoma cell growth” value was found to be 96.2±0.6%.
